Pooled drug test results. Numbers come from NIAID ChemDB, via PubChem.

All rows: growth or infection tests; species: Human cytomegalovirus; measure: EC50

Blank or dashed fields: not listed here.

SMILES | strain | cell line | method | value
Nc1nc(N)c2ncn([C@@H]3S[C@H](CO)[C@H](O)[C@@H]3F)c2n1 | - | - | - | 0.66 µg/mL
Nc1ncnc2c1ncn2[C@@H]1C=C(CO)[C@@H](O)[C@H]1O | AD-169 (100 PFU) | HEL | cytopathic effect | 1.26 µg/mL
Cc1cccc2c1OP(=O)(OC[C@H]1O[C@@H](n3cc(/C=C/Br)c(=O)[nH]c3=O)C[C@@H]1OC(=O)[C@@H](N)C(C)C)OC2 | AD169 | HELF | plaque count | >128 µg/mL
O=C1NCc2c1c1c3ccccc3[nH]c1c1[nH]c3ccccc3c21 | AD169 | HEF | plaque count | 0.32 µM
O=c1[nH]c(=O)n(C2CC(O)C(CO)O2)cc1/C=C/Br | AD169 | HEL | - | >100 µM
Nc1ccn(C[C@@H](CO)OCP(=O)(O)O)c(=O)n1 | DER530 (GCV HPMPC-resistant) | HEL | plaque count | 2.4 µg/mL
OC[C@H]1O[C@@H](n2cnc3c(Cl)nccc32)C[C@@H]1O | AD169 | HEL | - | >100 µM
Nc1nc2c(ncn2COC(CO)CO)c(=O)[nH]1 | DER530 (GCV HPMPC-resistant) | HEL | plaque count | 9.6 µg/mL
CC1CNCCN1S(=O)(=O)c1cccc2cnccc12 | Isolate 6 | HEF | plaque count | 23.6 µM
O=c1ccn(Cc2c(F)cccc2F)c(=O)n1Cc1c(F)cccc1F | AD169 | - | - | >14 µM
CC(C)(CCl)C(=O)Nc1ccc(NS(=O)(=O)c2cccc3ccccc23)cc1 | - | - | - | 0.087 µM
Nc1nccc2c1ncn2[C@@H]1C[C@H](CO)[C@@H](O)[C@H]1O | DAVIS (100 PFU) | HEL | cytopathic effect | 8.12 µg/mL
O=C(NCCc1c[nH]c2ccccc12)C1=Cc2ccncc2CC1 | AD169 | MRC-5 | plaque count | 1 µM
Cn1c2ccccc2c2c3c(c4c5ccccc5n(CCC#N)c4c21)CNC3=O | Isolate 6 | HEF | plaque count | 0.009 µM
Nc1nccc2c1ncn2[C@@H]1C=C(CO)[C@@H](O)[C@H]1O | AD-169 (100 PFU) | HEL | cytopathic effect | 0.27 µg/mL
Cc1cccc2c1OP(=O)(OC[C@H]1O[C@@H](n3cc(/C=C/Br)c(=O)[nH]c3=O)C[C@@H]1OC(=O)[C@H]1CCCN1)OC2 | AD169 | HELF | plaque count | >128 µg/mL
Nc1ncnc2c1ncn2[C@@H]1C=C[C@@H](O)[C@H]1O | DAVIS (100 PFU) | HEL | cytopathic effect | 25.75 µg/mL
COc1cc(Cn2c(=O)ccn(CC#N)c2=O)cc(OC)c1 | AD169 | - | - | >166 µM
C[C@@H](O)C1=C[C@@H](n2cnc3c(N)ncnc32)[C@H](O)[C@@H]1O | AD-169 (100 PFU) | HEL | cytopathic effect | 1.35 µg/mL
O=c1ccn(Cc2ccccc2)c(=O)n1-c1ccccc1 | AD169 | - | - | >180 µM
Nc1nccc2c1ncn2[C@H]1C[C@H](O)[C@@H](COP(=O)(O)COC(=O)[C@@H](N)CC(=O)O)O1 | DAVIS | HEL | - | >100 µM
Cc1cccc2c1OP(=O)(OC[C@H]1O[C@@H](n3cc(/C=C/Br)c(=O)[nH]c3=O)C[C@@H]1OC(=O)[C@H](C)N)OC2 | AD169 | HELF | plaque count | >128 µg/mL
Cc1cc(C)cc(Cn2c(=O)ccn(CC#N)c2=O)c1 | AD169 | - | - | >74 µM
C[C@H]1C[C@@H](n2cnc3c(N)ncnc32)[C@H](O)[C@@H]1O | AD-169 (100 PFU) | HEL | cytopathic effect | >100 µg/mL
Nc1ccnc2c1ncn2[C@H]1C[C@H](O)[C@@H](COP(=O)(O)COC(=O)[C@@H](N)CC(=O)O)O1 | DAVID | HEL | - | >100 µM
Cc1cccc2c1OP(=O)(OC[C@H]1O[C@@H](n3cc(/C=C/Br)c(=O)[nH]c3=O)C[C@@H]1OC(=O)[C@@H](C)N)OC2 | AD169 | HELF | plaque count | >128 µg/mL
Cc1cc(C)nc(Cn2c(=O)ccn(Cc3c(F)cccc3F)c2=O)c1 | AD169 | - | - | >140 µM
CCCCOC(=O)N(CC(=O)Nc1ccc(-c2csc(N)n2)cc1)Cc1ccccc1 | - | HS68 | plaque count | 12 µM
C[C@H](N)C(=O)OCP(=O)(OC[C@H]1O[C@@H](n2cc(/C=C/Br)c(=O)[nH]c2=O)C[C@@H]1O)Oc1ccccc1 | DAVIS | HEL | - | >20 µM
CC(C)COC(=O)C(O)Cn1cnc2c(N)ncnc21 | AD-169 (100 PFU) | HEL | cytopathic effect | 22.5 µg/mL
N#CCn1ccc(=O)n(Cc2cccc(C#N)c2)c1=O | AD169 | - | - | >188 µM
Nc1nccc2c1ncn2[C@@H]1O[C@H](CO)[C@@H](O)[C@H]1O | DAVIS (20 PFU) | HEL | plaque count | 3.5 µg/mL
Nc1ccn(C[C@@H](CO)OCP(=O)(O)O)c(=O)n1 | DAVIS | HEL | - | 0.8 µM
CC(=O)O[C@H]1C[C@H](n2cc(/C=C/Br)c(=O)[nH]c2=O)O[C@@H]1COP1(=O)OCc2ccccc2O1 | AD169 | HELF | plaque count | >128 µg/mL
N#CCn1ccc(=O)n(Cc2ccc3ccccc3c2)c1=O | AD169 | - | - | >69 µM
Nc1nccc2c1ncn2C(C=O)OC(C=O)CO | DAVIS (100 PFU) | HEL | cytopathic effect | 1.1 µg/mL
Cc1ccc(S(=O)(=O)NC(N)=NCCC[C@H](NC(=O)OCc2cc(C)ccc2C)C(=O)N[C@H](C(=O)NC(/C=[N+](/C)[O-])CC(C)C)C(C)C)cc1 | - | - | - | 0.007 µM
Cc1cc(C)c(Cn2c(=O)ccn(CC#N)c2=O)c(C)c1 | AD169 | - | - | 102 µM
Nc1ncnc2c1ccn2[C@H]1C[C@H](O)[C@@H](CO)O1 | DAVIS | HEL | - | >100 µM

6 of the rows above, restated:

SMILES | strain | cell line | method | value
Nc1nccc2c1ncn2C(C=O)OC(C=O)CO | DAVIS (100 PFU) | HEL | cytopathic effect | 1.1 µg/mL
CC(C)(CCl)C(=O)Nc1ccc(NS(=O)(=O)c2cccc3ccccc23)cc1 | - | - | - | 0.087 µM
Nc1nccc2c1ncn2[C@@H]1C[C@H](CO)[C@@H](O)[C@H]1O | DAVIS (100 PFU) | HEL | cytopathic effect | 8.12 µg/mL
Nc1ncnc2c1ncn2[C@@H]1C=C[C@@H](O)[C@H]1O | DAVIS (100 PFU) | HEL | cytopathic effect | 25.75 µg/mL
Cc1ccc(S(=O)(=O)NC(N)=NCCC[C@H](NC(=O)OCc2cc(C)ccc2C)C(=O)N[C@H](C(=O)NC(/C=[N+](/C)[O-])CC(C)C)C(C)C)cc1 | - | - | - | 0.007 µM
O=C1NCc2c1c1c3ccccc3[nH]c1c1[nH]c3ccccc3c21 | AD169 | HEF | plaque count | 0.32 µM

ECn: concentration that inhibits the pathogen or its effect by n%. Neighbouring rows are from separate reports.